The text below walks through data of PMC7106896, “Synthesis and biological evaluation of 2-(4-methylsulfonyl phenyl) indole derivatives: multi-target compounds with dual antimicrobial and anti-inflammatory activities” (BMC Chemistry, 2020).

This series in a line: In vitro nitric oxide release assay (Griess reagent). Background: The Griess reaction detects nitrite, a stable product of nitric oxide.

For `CS(=O)(=O)c1ccc(-c2[nH]c3ccc(F)cc3c2C=NO)cc1` [Compound 9b, 5-Fluoro-2-(4-(methylsulfonyl)phenyl)-1H-indole-3-carbaldehyde oxime], the “Amount of NO released (% mol/mol) ± standardization error” value was determined as 0.086 ± 0.001 % mol/mol (phosphate buffer pH 7.4, 1 h); 0.147 ± 0.003 % mol/mol (phosphate buffer pH 7.4, 2 h); 0.210 ± 0.002 % mol/mol (phosphate buffer pH 7.4, 3 h); 0.198 ± 0.003 % mol/mol (phosphate buffer pH 7.4, 4 h); 0.218 ± 0.005 % mol/mol (phosphate buffer pH 7.4, 5 h).
As for `Cc1ccc2[nH]c(-c3ccc(S(C)(=O)=O)cc3)c(C=NO)c2c1` [Compound 9c, 5-Methyl-2-(4-(methylsulfonyl)phenyl)-1H-indole-3-carbaldehyde oxime], the “Amount of NO released (% mol/mol) ± standardization error” value (phosphate buffer pH 7.4, 1 h) is reported as 0.061 ± 0.001 % mol/mol; the “Amount of NO released (% mol/mol) ± standardization error” value (phosphate buffer pH 7.4, 2 h) was found to be 0.130 ± 0.002 % mol/mol; the “Amount of NO released (% mol/mol) ± standardization error” value (phosphate buffer pH 7.4, 3 h) turned out to be 0.187 ± 0.001 % mol/mol; the “Amount of NO released (% mol/mol) ± standardization error” value (phosphate buffer pH 7.4, 4 h) is 0.198 ± 0.003 % mol/mol; the “Amount of NO released (% mol/mol) ± standardization error” value (phosphate buffer pH 7.4, 5 h) amounted to 0.225 ± 0.002 % mol/mol.
In the case of `CS(=O)(=O)c1ccc(-c2[nH]c3ccccc3c2C=NO)cc1` [Compound 9a, 2-(4-(Methylsulfonyl)phenyl)-1H-indole-3-carbaldehyde oxime], the “Amount of NO released (% mol/mol) ± standardization error” value runs as follows: (phosphate buffer pH 7.4, 1 h) 0.027 ± 0.002 % mol/mol; (phosphate buffer pH 7.4, 2 h) 0.065 ± 0.002 % mol/mol; (phosphate buffer pH 7.4, 3 h) 0.194 ± 0.007 % mol/mol; (phosphate buffer pH 7.4, 4 h) 0.165 ± 0.002 % mol/mol; (phosphate buffer pH 7.4, 5 h) 0.138 ± 0.004 % mol/mol.
